Measured values from several laboratories, pooled; numbers as filed in NIAID ChemDB.

Shared fields: whole-cell or culture tests; agent: Herpes simplex virus 2; endpoint: EC50

Neighbouring rows are from separate reports.

compound,strain or isolate,cells,method,value
O=c1ccn(C2CC(O[N+](=O)[O-])C(CO)O2)c(=O)[nH]1,G,E6SM,cytopathic effect,>400 µg/mL
COC(=O)CC(=O)O[C@@H]1C[C@@H]2CC[C@H]3C(C)(C)CCC[C@]3(C)[C@]23CCC1(C)C3,,VERO,,15 µg/mL
Cc1cc([C@H]2C[C@H](O)[C@@H](CO)O2)c(F)cc1Cl,G,E6SM,cytopathic effect,>400 µg/mL
CCCCCC(=O)OCC(CO)CCn1cnc2c(=O)[nH]c(N)nc21,MS,VERO,plaque count,15 µM
N=C(N)CCNC(=O)c1c[nH]c(NC(=O)c2c[nH]c(NC(=O)CC(=O)Nc3c[nH]c(C(=O)Nc4c[nH]c(C(=O)NCCC(=N)N)c4)c3)c2)c1,,PRK,cytopathic effect,4 µg/mL
CC(=O)O[C@H]1C[C@H]2C(C)(C)CCC[C@]2(C)[C@@]23CCC(C)(C2)[C@@H](O)C[C@H]13,,VERO,,25 µg/mL
C=C1[C@H](CO)[C@H]1Cn1cnc2c(=O)[nH]c(N)nc21,,,,>100 µM
O=C(O[C@@H]1[C@@H](c2c(O)cc(O)c3c2O[C@H](c2cc(O)c(O)c(O)c2)[C@H](OC(=O)c2cc(O)c(O)c(O)c2)C3)c2c(O)cc(O)cc2O[C@@H]1c1cc(O)c(O)c(O)c1)c1cc(O)c(O)c(O)c1,196,VERO,XTT,5.3 µM
Nc1cc(OCCOCP(=O)(O)O)nc(N)n1,G,E6SM,cytopathic effect,33 µM
Nc1nc2c(ncn2CCC(COC=O)COC=O)c(=O)[nH]1,MS,VERO,plaque count,10 µM
OC[C@H]1O[C@@H](c2ccccc2)C[C@@H]1O,G,E6SM,cytopathic effect,>400 µg/mL
Nc1nc2c(ncn2COCCO)c(=O)[nH]1,F51695 (acyclovir-susceptible),HFF,cytopathic effect,2.5 µg/mL
CN[C@H]1C[C@@H](n2cnc3c(N)ncnc32)[C@H](O)[C@@H]1O,,HFF,,>100 µg/mL
Nc1nc2c(ncn2COCCO)c(=O)[nH]1,,MRC-5,,5.3 µM
OC[C@H]1O[C@H](c2ccc(F)cc2F)C[C@@H]1O,LYONS,E6SM,cytopathic effect,>400 µg/mL
O=C(c1ccc([N+](=O)[O-])cc1)n1c(-c2ccccc2Cl)nc2ccccc21,G,,,>100 µg/mL
O=[N+]([O-])c1cc([C@H]2C[C@H](O)[C@@H](CO)O2)c(F)cc1F,G,E6SM,cytopathic effect,>400 µg/mL
O=c1[nH]c(=O)n([C@H]2C[C@H](O)[C@@H](CO)O2)cc1-c1ccc(Cl)s1,196,HEL,cytopathic effect,200 µg/mL
Nc1nc2c(ncn2[C@H]2C=C[C@@H](CO)[C@H](O)C2)c(=O)[nH]1,LYONS,E6SM,cytopathic effect,0.07 µg/mL
COc1ccccc1-c1nc2ccccc2n1C(=O)c1ccncc1,G,,,>20 µg/mL
CC1=C[C@H](n2cnc3c(N)ncnc32)C[C@@]1(CO)c1ccccc1,,CCL-81,cytopathic effect,>100 µg/mL
CC1(C)CCC[C@@]2(C)[C@H]1CC[C@H]1C[C@@H](O)C3(C)CC[C@]12C3,,VERO,,7.5 µg/mL
C=C1[C@H](CO)[C@H]1Cn1cnc2c(Cl)ncnc21,,,,>100 µM
O=C(c1ccccc1Br)n1c(-c2ccc(O)cc2)nc2ccccc21,G,,,>100 µg/mL
OC[C@H]1O[C@@H](c2ccccc2)[C@H](O)[C@@H]1O,G,E6SM,cytopathic effect,>400 µg/mL
Cc1cc([C@@H]2C[C@H](O)[C@@H](CO)O2)c(F)cc1F,LYONS,E6SM,cytopathic effect,>400 µg/mL
O=C(OC1COC(=O)c2cc(O)c(O)c(O)c2-c2c(cc(O)c(O)c2O)C(=O)OC1C1OC(=O)c2cc(O)c(O)c(O)c2-c2c(O)c(O)c(O)c3c2C(=O)OC1C3O)c1cc(O)c(O)c(O)c1,,VERO,XTT,3.6 µM
COC(=O)CC(=O)O[C@@H]1C[C@@H]2[C@@H](OC(C)=O)C[C@H]3C(C)(C)CCC[C@]3(C)[C@]23CCC1(C)C3,,VERO,,15 µg/mL
OC[C@H]1O[C@@H](c2cc(C(F)(F)F)c(F)cc2F)C[C@@H]1O,G,E6SM,cytopathic effect,>400 µg/mL
O=c1[nH]c(=O)n([C@H]2C[C@H](O)[C@@H](COP(=O)(O)O)O2)cc1/C=C/c1cccc([N+](=O)[O-])c1,LYONS,PRK,cytopathic effect,>100 µg/mL
O=c1[nH]c(=O)n([C@H]2C[C@H](O)[C@@H](CO)O2)cc1/C=C/Br,LYONS,E6SM,cytopathic effect,>80 µg/mL
O=c1[nH]c(=O)n([C@H]2C[C@H](O)[C@@H](CO)O2)cc1I,196,PRK,cytopathic effect,0.2 µg/mL
O=C(c1ccc([N+](=O)[O-])cc1)n1c(-c2ccc(Cl)cc2)nc2ccccc21,G,,,>100 µg/mL
Cc1cc([C@@H]2C[C@H](O)[C@@H](CO)O2)c(F)cc1Cl,196,E6SM,cytopathic effect,>400 µg/mL
O=C(c1ccncc1)n1c(-c2cccc([N+](=O)[O-])c2)nc2ccccc21,G,,,>100 µg/mL
CC1=C[C@H](n2ccc(N)nc2=O)C[C@@]1(CO)c1ccccc1,,CCL-81,cytopathic effect,>100 µg/mL
CC(=O)c1c(O)c(C(=O)CC(C)C)c(O)c2c1OC(C(C)(C)O)C2,,VERO,cytopathic effect,10.4 µM
COC(=O)[C@H]1[C@@H]2C[C@@H](O[C@@H]3O[C@H](C)[C@@H](O)[C@H](N)[C@@H]3O)/C=C/C=C/C=C/C=C/C=C/C=C/C=C/[C@H](C)[C@@H](O)[C@H](C)[C@H](C)OC(=O)C[C@H](O)C[C@H](O)[C@@H](O)CC[C@H](O)C[C@H](O)C[C@](O)(C[C@@H]1O)O2,,HFF,plaque count,1 µg/mL
N=C(N)CCNC(=O)c1c[nH]c(NC(=O)c2c[nH]c(NC(=O)c3ccc(CC(=O)Nc4c[nH]c(C(=O)Nc5c[nH]c(C(=O)NCCC(=N)N)c5)c4)cc3)c2)c1,,PRK,cytopathic effect,10 µg/mL
C=C1[C@H](CO)[C@H]1Cn1cnc2c(N)nc(N)nc21,,,,>100 µM
N=C(N)CCNC(=O)c1c[nH]c(NC(=O)c2c[nH]c(NC(=O)CCCCCCC(=O)Nc3c[nH]c(C(=O)Nc4c[nH]c(C(=O)NCCC(=N)N)c4)c3)c2)c1,,PRK,cytopathic effect,10 µg/mL
C[C@@H](c1ccccc1)N(CC(=O)Nc1ccc(-c2csc(N)n2)cc1)C(=O)c1ccncc1,VK-1,BHK-21/C13,plaque count,0.09 µM
Nc1nc2c(ncn2COC(CO)CO)c(=O)[nH]1,,VERO,plaque count,1.67 µM
Nc1cc([C@H]2C[C@H](O)[C@@H](CO)O2)c(F)cc1F,196,E6SM,cytopathic effect,>400 µg/mL
Nc1nc(N)c(Br)c(OCCOCP(=O)(O)O)n1,G,E6SM,cytopathic effect,700 µM
Cc1cn([C@H]2O[C@H](CO)[C@@H](N=[N+]=[N-])[C@H]2F)c(=O)nc1N,G,PRK,cytopathic effect,>400 µg/mL
O=C(c1ccccc1Br)n1c(-c2ccc([N+](=O)[O-])cc2)nc2ccccc21,G,,,>100 µg/mL
CC12CC3C4(CC[C@H]5C(C)(C)CCC[C@]5(C)[C@]34C1)CC2=O,,VERO,,20 µg/mL
Cc1cc([C@H]2C[C@H](O)[C@@H](CO)O2)c(Cl)cc1F,G,E6SM,cytopathic effect,>400 µg/mL
Cc1cn([C@@]23C[C@H](O)[C@@H](CO)[C@@H]2C3)c(=O)[nH]c1=O,,HFF,plaque count,>20 µg/mL
O=C(O)c1ccccc1-c1nc2ccccc2n1C(=O)c1ccncc1,G,,,>100 µg/mL

For reference, 4 entries again:

compound,strain or isolate,cells,method,value
O=C(c1ccccc1Br)n1c(-c2ccc(O)cc2)nc2ccccc21,G,,,>100 µg/mL
OC[C@H]1O[C@@H](c2ccccc2)C[C@@H]1O,G,E6SM,cytopathic effect,>400 µg/mL
Nc1nc(N)c(Br)c(OCCOCP(=O)(O)O)n1,G,E6SM,cytopathic effect,700 µM
Nc1nc2c(ncn2[C@H]2C=C[C@@H](CO)[C@H](O)C2)c(=O)[nH]1,LYONS,E6SM,cytopathic effect,0.07 µg/mL

An empty or dashed field is not shown. ECn is the concentration giving n% inhibition of infection, replication or growth.